Results reported in patent US20080171355A1, “DEVICE FOR TESTING THE EFFECTIVENESS OF DISINFECTANTS ON PROTOZOAN PARASITES” (priority 2006, published 2008).

Columns and labels:
[1] = system: unsporulated oocysts of Eimeria acervulina; assay: Effect of liquid disinfectants on unsporulated oocysts (Example 7); format: cell-based; details: Trial 1, 3 hours treatment, no treatment 78
[2] = system: Oocysts of Eimeria acervulina; assay: Effect of chemical disinfectants and UV light on sporulation rate (Table 16); format: cell-based; details: 2.5% 2 hours (20° C.); incubated at 30° C. (20 hrs); positive control 76.1
[3] = system: Eimeria acervulina oocysts; assay: Birds tested for infectivity of treated oocysts; format: in vivo, chicks; details: feces of 5 birds collected 5 days post inoculation
[4] = system: unsporulated oocysts of E. acervulina; assay: Sporulation of unsporulated E. acervulina oocysts after disinfectant treatment (Examples 3 and 4); details: for Sporulation rate (sporocyst stage only): control 69.8%
[5] = Group 3, chlorine treated 25,000 ppm
[6] = Group 4, chlorine treated 2,500 ppm
[7] = 2,500 ppm Cl2, 144 hrs at 4° C., 20 hrs at 29.5° C., total of samples
[8] = 25,000 ppm Cl2, 144 hrs at 4° C., 20 hrs at 29.5° C., total of samples
[9] = fresh scrapings incubated overnight at 29.5° C., followed by 25,000 ppm Cl2, listed as Cl2
[10] = fresh scrapings incubated overnight at 29.5° C., followed by 25,000 ppm Cl2, total

Q: How did the “Sporulation rates (%)” value ([1]; 150 ppm) turn out when Chlorine was run?
A: The value was 89%.

Q: What about the “Sporulation rates (%)” value ([1]; 600 ppm) of the same substance?
A: The value was 70%.

Q: What about the “Sporulation Rate (%)” value [2] of the same substance?
A: The value was 59.3%.

Q: And the “Infectivity, all pooled” value [3, 5]?
A: The value was “+ve”.

Q: And the “Oocysts in feces at 100× Magnification” value [3, 5]?
A: Its value is “(~6/field)”.

Q: And the “Oocysts in feces at 100× Magnification (words)” value [3, 5]?
A: Its value is “Few”.

Q: What about the “Infectivity, all pooled” value [3, 6] of the same substance?
A: The value was “+ve”.

Q: What about the “Oocysts in feces at 100× Magnification” value [3, 6] of the same substance?
A: The value was “(~100/field)”.

Q: And the “Oocysts in feces at 100× Magnification (words)” value [3, 6]?
A: The value was “Numerous”.

Q: And the “Inhibiting sporulation (in words)” value ([4]; 2,500 ppm)?
A: The value was “highly effective”.

Q: And the “Sporulation rate (sporocyst stage only)” value ([4]; 2,500 ppm Cl2, 144 hrs at 4° C., 20 hrs at 29.5° C.)?
A: Its value is 123/369 = 33.3% Sporocyst stage only.

Q: And the Spr. total count [4, 7]?
A: The Spr. total count was 123 ^.

Q: And the Unspr. total count [4, 7]?
A: The Unspr. total count was 246.

Q: What about the “Sporulation rate (sporocyst stage only)” value ([4]; 25,000 ppm Cl2, 144 hrs at 4° C., 20 hrs at 29.5° C.) of the same substance?
A: Its value is 49/306 = 16% Sporocyst Stage only.

Q: What about the Spr. total count [4, 8] of the same substance?
A: The Spr. total count was 49 ^.

Q: And the Unspr. total count [4, 8]?
A: Its Unspr. total count is 257.

Q: And the Sporulation rate ([4]; fresh scrapings incubated overnight at 29.5° C., followed by 25,000 ppm Cl2)?
A: The Sporulation rate was 367/476 = 77.1%.

Q: And the “Spr. (sporulated oocysts counted per sample)” value [4, 9]?
A: The value was 115 and 133 and 119.

Q: What about the “Unspr. (unsporulated oocysts counted per sample)” value [4, 9] of the same substance?
A: The value was 37 and 42 and 30.

Q: What about the Spr. total count [4, 10] of the same substance?
A: Its Spr. total count is 367.

Q: What about the Unspr. total count [4, 10] of the same substance?
A: Its Unspr. total count is 109.

Q: And the “Inhibiting sporulation (in words)” value ([4]; ~25,000 ppm)?
A: Its value is “highly effective”.

Where “and” joins values, the source holds several entries; their conditions need not be identical. Equal values may be shown once.
